Results of unrelated studies side by side (data: NIAID ChemDB).

Common to all: tests in culture; organism: HIV-1

Neighbouring rows are from separate reports. An empty or dashed field is not shown. ECn: concentration that inhibits the pathogen or its effect by n%. a–b is a range or a potency band.

SMILES | mutations | cells | strain or isolate | endpoint | method | result
Cc1cc2cn[nH]c2cc1NC(=O)COc1ccc(Cl)cc1C(=O)c1cccc(C#N)c1 | RT-G190A | HeLa + HELA CD4+ | HXB2 | EC50 | β-galactosidase | <0.01 µM
CCN1c2ncc(CCOc3ccc(C(=O)NCC4(C(=O)O)CCCC4)cc3C)cc2C(=O)N(C)c2cccnc21 | RT-K103N Y181C | C8166 |  | EC50 | p24 | 0.01–0.05 µM
CC1(C)CC=C(c2cn(-c3nccc(C(=O)NC4CCC(N5CC6CCC(C5)O6)CC4)n3)c3ccc(F)c([C@H](OC(C)(C)C)C(=O)O)c23)CC1 | V201I | MT-4 | NL4-3 | EC50 | luminescence | 0.0051 µM
Cc1cc(S(N)(=O)=O)ccc1NC(=O)COc1ccc(Cl)cc1C(=O)c1cc(F)cc(F)c1 | RT-K103N L100I | HeLa + HELA CD4+ | HXB2 | EC50 | β-galactosidase | <0.01 µM
CN1c2ccccc2C2C1C=C(C#N)C(=O)N2c1ccc([N+](=O)[O-])cc1 |  | HeLa | G-3 | EC50 | GFP / fluorescence | 0.02 µM
CC(C)[C@H](NC(=O)OCc1ccccn1)C(=O)N[C@@H](Cc1ccccc1)[C@@H](O)C[C@H](Cc1ccccc1)NC(=O)OCc1cccnc1 | PR-L63P V82T | MT-4 | NL4-3 | EC95 | p24 | 1.5 µM
O=C1c2c(O)c(=O)n(CC3COCCN3)c(=O)n2CCN1Cc1ccc(F)cc1 |  | MT-4 |  | EC95 | p24 | <10 µM
Cc1cc2[nH]cnc2cc1NC(=O)COc1ccc(Cl)cc1C(=O)c1cc(F)cc(C(F)(F)F)c1 |  | HeLa + HELA CD4+ | WTRVA | EC50 | β-galactosidase | <0.01 µM
COc1ccc(S(=O)(=O)N(CC(C)C)C[C@@H](O)CCNc2cc(C(C)(C)C)sc2C(N)=O)cc1 |  | CEM | IIIB | EC90 | p24 | 1 µM
Cc1cc(S(N)(=O)=O)ccc1NC(=O)COc1ccc(Cl)cc1C(=O)c1cccc(C#N)c1 | RT-V106A | HeLa + HELA CD4+ | HXB2 | EC50 | β-galactosidase | 0.011–0.1 µM
C#C[C@@]1(CO)C=C[C@H](n2cc(C)c(=O)[nH]c2=O)O1 | K103N/Y188L | MT-2 | Clinical isolate | EC50 | recombinant virus assay | 0.1615 µM
COc1ccnc2[nH]cc(C(=O)C(=O)N3C4CC3CN(C(=O)c3ccccc3)C4)c12 |  | TZM-bl | ZM214 | EC99 | luciferase | >>250 µM
Cc1cc(/C=C/C#N)cc(C)c1Oc1nc(NC2CCN(Cc3cccc(C#N)c3)CC2)nc2ccsc12 | NNRTI-resistant (RT E138K) | MT-4 | IIIB | EC50 | MTT | 0.0279 µM
CC(C)=CCOc1cc(NC(=S)c2ccsc2C)ccc1Cl |  | PBMC | WEJO | EC50 | p24 | 0.007 µM
COc1ccc(S(=O)(=O)N(CC(C)C)C[C@@H](O)CCN(CC2CCCC2)S(=O)(=O)C2CCCCC2)cc1 |  | CEM | IIIB | EC90 | p24 | 1 µM
Cc1cc(C#N)cc(C)c1Oc1nc(NC2CCC(NCc3ccc(S(C)(=O)=O)cc3)CC2)nc2ccsc12 | NNRTI-resistant (RT Y188L) | MT-4 | IIIB | EC50 | MTT | ≥196 µM
CCN1c2ncc(CCOc3ccc(C(=O)NNCC(=O)O)cc3C)cc2C(=O)N(C)c2cccnc21 |  | C8166 | IIIB | EC50 | p24 | 0.01–0.05 µM
O=C(COc1ccc(Cl)cc1C(=O)c1ccco1)Nc1ccc2cn[nH]c2c1 |  | MT-4 | IIIB | EC50 | cytopathic effect / propidium iodide | <0.01 µM
COc1ccc(S(=O)(=O)N(CC2CCCC2)C[C@@H](O)CN(CCc2ccccc2)C(=O)c2ccccc2)cc1 |  | CEM | IIIB | EC90 | p24 | 0.1 µM
Cc1nc2ccccc2c(-c2cc(F)c3c(c2C)CCCO3)c1[C@H](OC(C)(C)C)C(=O)O | L74I/T124A/G140S/Q148H | MT-4 | NL4-3 | EC50 | luminescence | 0.018 µM
CC(C)CN(CC(O)Cc1nccn1S(=O)(=O)c1ccccc1)S(=O)(=O)c1ccccc1 |  | CEM | IIIB | EC90 | p24 | 1 µM
Cc1cc(C#N)cc(C)c1Oc1nc(NC2CCC(NCc3ccc([N+](=O)[O-])cc3)CC2)nc2ccsc12 | NNRTI-resistant (RT F227L V106A) | MT-4 | IIIB | EC50 | MTT | 0.646 µM
CCC(=O)c1ccc(F)c([C@@H]2C[C@@H]2NC(=O)Nc2ccc(C#N)cn2)c1O | NNRTI-resistant (RT K101P) | TZM-bl | LAI | EC50 | β-galactosidase / luminescence | ≥0.0625 µM
Cc1cc(S(N)(=O)=O)ccc1NC(=O)COc1ccc(Cl)cc1C(=O)c1cc(F)cc(C(F)(F)F)c1 | RT-K103N Y181C | HeLa + HELA CD4+ | HXB2 (RT-K103N Y181C) Recombinant | EC50 | β-galactosidase | <0.01 µM
CC(C)=CCOc1cc(NC(=S)c2ccoc2C)ccc1Cl | RT-V179D | CEM + CEM-SS | NL4-3 (RT V179D) | EC50 | cytopathic effect / XTT | 0.008 µM
Cc1cc(/C=C/C#N)cc(C)c1Oc1nc(NC2CCN(Cc3cccc(C(N)=O)c3)CC2)nc2ccsc12 | NNRTI-resistant (RT F227L V106A) | MT-4 | IIIB | EC50 | MTT | 0.00789 µM
CC(C)=CCN1Cc2cccc3[nH]c(=O)n(c23)CC1C | RT-Y181C | CEM + CEM-SS | UC781-R (RT-Y181C) | EC50 | cytopathic effect / XTT | 11.8 µM
O=C(CN1CCOCC1)N1CCC(n2c(=O)c(O)c3n(c2=O)CCN(Cc2ccc(F)cc2)C3=O)CC1 |  | MT-4 |  | EC50 | p24 | <10 µM
CCN1c2ncc(CCOc3ccc(S(=O)(=O)c4ccc(C(=O)O)cc4)cc3C)cc2C(=O)N(C)c2cccnc21 | RT-K103N Y181C | C8166 |  | EC50 | p24 | >0.05 µM
Cc1cc(OCCCS(N)(=O)=O)ccc1NC(=O)COc1ccc(Cl)cc1C(=O)c1cc(F)cc(C(F)(F)F)c1 | RT-V106I | HeLa + HELA CD4+ | HXB2 | EC50 | β-galactosidase | <0.01 µM
CC1CC(C)CN(S(=O)(=O)c2ccccc2[N+](=O)[O-])C1 |  | HeLa | B-HXB2 | EC50 | GFP / fluorescence | 0.84 µM
O=C1c2c(O)c(=O)n(C3CCS(=O)(=O)c4ccccc43)c(=O)n2CCN1Cc1ccc(F)cc1 |  | MT-4 |  | EC95 | p24 | <10 µM
Cc1cc(C#N)cc(C(=O)c2cc(Cl)ccc2OCC(=O)Nc2cnc(S(N)(=O)=O)cc2C)c1 | RT-L100I | HeLa + HELA CD4+ | HXB2 | EC50 | β-galactosidase | <0.01 µM
CCN1c2ncc(CCOc3ccc(-c4ccncc4)cc3)cc2C(=O)N(C)c2cccnc21 |  | C8166 | IIIB | EC50 | p24 | <0.01 µM
CC(C)=CCOc1cc(NC(=S)c2ccsc2C)ccc1Cl |  | CEMx174 + CEM | IIIB | EC50 | cytopathic effect / XTT | 0.008 µM
Cc1cc(/C=C/C#N)cc(C)c1Oc1nc(NC2CCN(Cc3ccc(Br)cc3)CC2)nc2ccsc12 |  | MT-4 | RES056 | EC50 | MTT | 0.154 µM
CCc1cc(C#N)cc(C(=O)c2cc(Cl)ccc2OCC(=O)Nc2ccc(S(N)(=O)=O)cc2C)c1 | RT-V108I Y181C | HeLa + HELA CD4+ | HXB2 | EC50 | β-galactosidase | <0.01 µM
COc1ccnc2[nH]cc(C(=O)C(=O)N3C4CCC3CN(C(=O)c3ccccc3)C4)c12 |  | TZM-bl | SF162 | EC50 | luciferase | 0.36 µM
O=C(c1ccccc1)N(CCc1ccccc1)C[C@H](O)CN(CC1CCCC1)S(=O)(=O)c1ccc2nc[nH]c2c1 |  | CEM | IIIB | EC50 | p24 | <1 µM
Cc1cc(/C=C/C#N)cc(C)c1Oc1nc(NC2CCN(Cc3cccnc3)CC2)nc2ccsc12 | NNRTI-resistant (RT Y181C) | MT-4 | IIIB | EC50 | MTT | 0.00606 µM
COCC(C)n1c(=O)c(O)c2n(c1=O)CCN(Cc1ccc(F)cc1)C2=O |  | MT-4 |  | EC50 | p24 | <10 µM
Nc1nc(NC2CC2)c2ncn([C@H]3C=C[C@@H](CO)C3)c2n1 | D67N/T69N/K70R/A98G/M184V/G190S/T215F/K219Q | MT-2 | Clinical isolate | EC50 | recombinant virus assay | 0.748 µM

The last 3 rows once more:

SMILES | mutations | cells | strain or isolate | endpoint | method | result
Cc1cc(/C=C/C#N)cc(C)c1Oc1nc(NC2CCN(Cc3cccnc3)CC2)nc2ccsc12 | NNRTI-resistant (RT Y181C) | MT-4 | IIIB | EC50 | MTT | 0.00606 µM
COCC(C)n1c(=O)c(O)c2n(c1=O)CCN(Cc1ccc(F)cc1)C2=O |  | MT-4 |  | EC50 | p24 | <10 µM
Nc1nc(NC2CC2)c2ncn([C@H]3C=C[C@@H](CO)C3)c2n1 | D67N/T69N/K70R/A98G/M184V/G190S/T215F/K219Q | MT-2 | Clinical isolate | EC50 | recombinant virus assay | 0.748 µM